Results of unrelated studies side by side (data: NIAID ChemDB).

Common to all: growth or infection tests; species: HIV-1; method: cytopathic effect / MTT; measure: EC50

ECn: concentration that inhibits the pathogen or its effect by n%. Neighbouring rows are from separate reports. An empty or dashed field is not shown. a–b is a range or a potency band.

compound	mutations	strain or isolate	cell line	result
COc1ccc([C@H]2c3c(cc4c(c3OC)OCO4)C[C@H]3CSC[C@@H]32)cc1OCc1ccccc1		IIIB	MT-4	4.78 µM
Nc1cc2c(=O)c(C(=O)O)cn(C3CC3)c2cc1N1CCN(c2nc3ccccc3s2)CC1		IIIB	MT-4	>0.076 µg/mL
COc1cccc2c1C(=O)C(C1=C(N)C(=O)c3ccccc3C1=O)=C(Cl)C2=O		IIIB	CEM	2.4 µM
CC(C)(CS(=O)(=O)[O-])[NH2+]C(=O)C(CC(F)(OC(F)(F)C(F)(OC(F)(F)C(F)(OC(F)(F)C(F)(F)C(F)(F)F)C(F)(F)F)C(F)(F)F)C(F)(F)F)C(F)(OC(F)(F)C(F)(OC(F)(F)C(F)(OC(F)(F)C(F)(F)C(F)(F)F)C(F)(F)F)C(F)(F)F)C(F)(F)F		IIIB	MT-4	0.85 µg/mL
CN1c2ccccc2C2C1C=C(C#N)C(=O)N2c1ccc(Br)cc1		LAI	MT-4	1–32 µM
COc1cc([C@H]2c3c(cc4c(c3OC)OCO4)C[C@H]3COC(=O)[C@@H]32)cc(C)c1OC		IIIB	MT-4	25.9 µM
Cc1c(OC(=O)CCCCOc2ccc(C[C@H](N)C(=O)O)cc2)cccc1C(=O)N[C@@H](CSc1ccccc1)[C@H](O)CN1C[C@H]2CCCC[C@H]2C[C@H]1C(=O)NC(C)(C)C		IIIB	MT-4	0.193 µM
Fc1cccc(F)c1CCNC(=S)Nc1cccc(Cl)n1		IIIB	MT-4	0.004 µg/mL
CCCCCCCC/C=C\CCCCCCCC(=O)O[C@H](CN1C[C@H]2CCCC[C@H]2C[C@H]1C(=O)NC(C)(C)C)[C@H](Cc1ccccc1)NC(=O)[C@H](CC(N)=O)NC(=O)c1ccc2ccccc2n1		IIIB	MT-4	2.7 µM
COC1=C(C2=C(Cl)C(=O)c3ccccc3C2=O)C(=O)c2ccc3c(c2C1=O)C=CC(C)(C)O3		IIIB	CEM	1.8 µM
COc1cccc(-c2nc(-c3ccc(N4C(=O)C=CC5C4c4ccccc4N5C)cc3)no2)c1		LAI	MT-4	>32 µM
COc1ccc2c(c1)C(=O)C(C1=C(O)c3ccccc3C(=O)C1=O)=C(I)C2=O		IIIB	CEM	4.2 µM
COc1cc(Br)cnc1NC(=S)NCCc1c(F)cccc1F		IIIB	MT-4	2.53 µg/mL
CC(C)(C)NC(=O)[C@@H]1C[C@@H]2CCCC[C@@H]2CN1C[C@@H](OC(=O)COc1ccc(CC(NC(=O)OC(C)(C)C)C(=O)OC(C)(C)C)cc1)[C@H](Cc1ccccc1)NC(=O)[C@H](CC(N)=O)NC(=O)c1ccc2ccccc2n1		IIIB	MT-4	0.035 µM
Cc1cc(Br)cnc1NC(=S)NCCc1c(F)cccc1F		IIIB	MT-4	0.0821 µg/mL
O=c1cc(Sc2ccccc2)n(COCCO)c(=O)[nH]1		IIIB	MT-4	>500 µM
CC(C)(C)NC(=O)[C@@H]1CN(Cc2cccnc2)CCN1C[C@H](C[C@@H](Cc1ccccc1)C(=O)N[C@H]1c2ccccc2C[C@H]1OC(=O)CCCCOc1ccc(C[C@H](NC(=O)OC(C)(C)C)C(=O)O)cc1)OC(=O)CCCCOc1ccc(C[C@H](NC(=O)OC(C)(C)C)C(=O)O)cc1		IIIB	MT-4	>1 µM
COCCOCCOCCOCCOCCOCCOCCOCCOCCOCCOCCOCCOCCOCCOCCOCCOCCOCCOCCOCCOCCOCCOCCOCCOCCOCCOCCOCCOCCOCCOCCOCCOCCOCCOCCOCCOCCOCCOCCOCCOCCOCCOCCOCCOC(=O)CCC(=O)O[C@H](CN1C[C@H]2CCCC[C@H]2C[C@H]1C(=O)NC(C)(C)C)[C@H](Cc1ccccc1)NC(=O)[C@H](CC(N)=O)NC(=O)c1ccc2ccccc2n1		IIIB	MT-4	0.032 µM
CC1(C)C(N)=C(c2ccccc2)S(=O)(=O)N1Cc1cccc(Cl)c1		IIIB	MT-4	>125 µg/mL
CC(C)C(NC(=O)OC(C)(C)C)C(=O)O[C@@H](C[C@@H](Cc1ccccc1)C(=O)N[C@H]1c2ccccc2C[C@H]1OC(=O)C(NC(=O)OC(C)(C)C)C(C)C)CN1CCN(Cc2cccnc2)C[C@H]1C(=O)NC(C)(C)C		LAI	CEM + CEM-SS	4.7 µM
COc1cc([C@H]2c3c(cc(OC)c(OC)c3OC)C[C@H]3COC(=O)[C@@H]32)cc(C)c1OC		IIIB	MT-4	41 µM
Cc1cc(C)cc(S(=O)(=O)c2c(C(=O)NCCO)[nH]c3ccc(Cl)cc23)c1	RT-K103N Y181C		MT-4	0.5 µM
CCc1c(Sc2ccccc2)n(COCc2ccccc2)c(=O)[nH]c1=O		IIIB	MOLT-4	0.0039 µM
COc1ccc2c(c1)C(=O)C(I)=C(C1=C(O)c3ccccc3C(=O)C1=O)C2=O		IIIB	CEM	3.6 µM
Cc1nc(NC(=S)NCCc2c(F)cccc2F)ccc1Br		IIIB	MT-4	0.002 µg/mL
CC(C)C(NC(=O)OC(C)(C)C)C(=O)O[C@H](CN1C[C@H]2CCCC[C@H]2C[C@H]1C(=O)NC(C)(C)C)[C@H](Cc1ccccc1)NC(=O)[C@H](CC(N)=O)NC(=O)c1ccc2ccccc2n1		IIIB	MT-4	3.2 µM
COc1ccc2c(c1)C(=O)C(Br)=C(C1=C(O)c3ccccc3C(=O)C1=O)C2=O		IIIB	CEM	2 µM
CN1c2ccccc2C2C1C=C(Br)C(=O)N2c1ccc([N+](=O)[O-])cc1		LAI	MT-4	<1 µM
Fc1cccc(NC(=S)NCCc2c(F)cccc2F)n1		IIIB	MT-4	0.0029 µg/mL
CC1(C)OS(=O)(=O)C=C1NCc1ccccc1		IIIB	MT-4	>125 µg/mL
CCCCc1cccc(-c2nc(-c3ccc(N4C(=O)C=CC5C4c4ccccc4N5C)cc3)no2)c1		LAI	MT-4	>32 µM
COCCOCCOCCOCCOCCOCCOCCOCCOCCOCCOCCOCCOCCOCCOCCOCCOCCOCCOCCOCCOCCOCCOCCOCCOCCOCCOCCOCCOCCOCCOCCOCCOCCOCCOCCOCCOCCOCCOCCOCCOCCOCCOCCOCCOC(=O)CCC(=O)O[C@@H]1Cc2ccccc2[C@@H]1NC(=O)[C@H](Cc1ccccc1)C[C@H](O)CN1CCN(Cc2cccnc2)C[C@H]1C(=O)NC(C)(C)C		LAI	CEM + CEM-SS	0.085 µM
CC1(Cc2ccccc2)OS(=O)(=O)C(c2ccccc2)=C1N		IIIB	MT-4	>125 µg/mL
CC(C)(C)NC(=O)[C@@H]1CN(Cc2cccnc2)CCN1C[C@H](C[C@@H](Cc1ccccc1)C(=O)N[C@H]1c2ccccc2C[C@H]1O)OC(=O)COc1ccc(C[C@H](N)C(=O)O)cc1		IIIB	MT-4	0.08 µM
COC1=C(C2=C(Cl)C(=O)c3ccccc3C2=O)C(=O)c2cc(OC)ccc2C1=O		IIIB	CEM	1.6 µM
Cc1c(O)cccc1C(=O)N[C@@H](CSc1ccccc1)[C@@H](CN1C[C@H]2CCCC[C@H]2C[C@H]1C(=O)NC(C)(C)C)OC(=O)CCCCOc1ccc(C[C@H](NC(=O)OC(C)(C)C)C(=O)O)cc1		IIIB	MT-4	2.05 µM
COc1ccc([C@H]2c3c(cc4c(c3OC)OCO4)C[C@@H](C)[C@@H]2C)cc1O		IIIB	MT-4	76.1 µM

Repeating the final 5 entries:

{"compound": "CC1(Cc2ccccc2)OS(=O)(=O)C(c2ccccc2)=C1N", "strain or isolate": "IIIB", "cell line": "MT-4", "result": ">125 µg/mL"}
{"compound": "CC(C)(C)NC(=O)[C@@H]1CN(Cc2cccnc2)CCN1C[C@H](C[C@@H](Cc1ccccc1)C(=O)N[C@H]1c2ccccc2C[C@H]1O)OC(=O)COc1ccc(C[C@H](N)C(=O)O)cc1", "strain or isolate": "IIIB", "cell line": "MT-4", "result": "0.08 µM"}
{"compound": "COC1=C(C2=C(Cl)C(=O)c3ccccc3C2=O)C(=O)c2cc(OC)ccc2C1=O", "strain or isolate": "IIIB", "cell line": "CEM", "result": "1.6 µM"}
{"compound": "Cc1c(O)cccc1C(=O)N[C@@H](CSc1ccccc1)[C@@H](CN1C[C@H]2CCCC[C@H]2C[C@H]1C(=O)NC(C)(C)C)OC(=O)CCCCOc1ccc(C[C@H](NC(=O)OC(C)(C)C)C(=O)O)cc1", "strain or isolate": "IIIB", "cell line": "MT-4", "result": "2.05 µM"}
{"compound": "COc1ccc([C@H]2c3c(cc4c(c3OC)OCO4)C[C@@H](C)[C@@H]2C)cc1O", "strain or isolate": "IIIB", "cell line": "MT-4", "result": "76.1 µM"}